A mixed list of measured activities; the numbers were collected in NIAID ChemDB.

Common to all: tests in culture; agent: HIV-1; cell line: MT-4; read-out: EC50

Rows are shuffled and stem from different studies. Blank or dashed fields: not listed here. ECn is the concentration giving n% inhibition of infection, replication or growth. Two numbers with a dash give a range or band.

SMILES,strain,mutations,read by,result
N#Cc1ccc(Nc2nc(Oc3c(F)cc(-c4ccc(C#N)cc4)cc3F)c3sccc3n2)cc1,IIIB,Y188L,MTT,>20.3 µM
Cc1[nH]c(=S)n(Nc2cccc(F)c2)c1-c1ccccc1,SO561945 (RT K103N Y181C),RT-K103N Y181C,cytopathic effect / MTT,≥43.42 µM
N#Cc1ccc(Nc2nc(Oc3ccc(-c4ccc(C#N)cc4)c(C#N)c3)c3sccc3n2)cc1,IIIB,-,MTT,0.0766 µM
CC(CC(F)(F)C(F)(F)C(F)(F)F)(C(=O)OCCOP(=O)([O-])O)C(F)(F)C(F)(F)C(F)(F)F.[NH3+]CCO,-,-,cytopathic effect,4 µg/mL
Nc1nnc(SCC(=O)Nc2cc(F)ccc2F)s1,IIIB,-,p24 / ELISA / antigen,16.1 µM
CCOP(=O)(OCC)C(N[C@@H](Cc1ccccc1)[C@@H](O)CN(CC(C)C)S(=O)(=O)c1ccc(OC)cc1)c1ccc([N+](=O)[O-])cc1,IIIB,-,MTT,>3.94 µg/mL
CC(=O)N[C@@H](CCC(N)=O)C(=O)N[C@@H](C)C(=O)N[C@@H](CC(C)C)[C@@H](O)CC(=O)N[C@H](C(=O)N[C@H](C(N)=O)C(C)C)C(C)C,IIIB,-,ELISA / antigen,750 µM
Cc1nc(C2=CC3Nc4ccccc4C3N(c3ccc(-c4noc(C)n4)cc3)C2=O)no1,LAI,-,cytopathic effect / MTT,>32 µM
Cc1[nH]c(=S)n(Nc2cccc(Cl)c2)c1C(=O)O,NL4-3,-,cytopathic effect / MTT,>266 µM
CCN1c2ccccc2C2C1C=C(C#N)C(=O)N2c1ccc([N+](=O)[O-])cc1,LAI,-,cytopathic effect / MTT,<1 µM
CC(C)CN(C[C@@H](O)[C@H](Cc1ccccc1)NC(=O)OCc1cnco1)S(=O)(=O)c1ccc2nc(N)oc2c1,LAI WT,-,cytopathic effect / MTT,0.0072 µM
CCOP(=O)(OCC)C(N[C@@H](Cc1ccccc1)[C@@H](O)CN(CC(C)C)S(=O)(=O)c1ccc(OC)cc1)c1ccccn1,IIIB,-,MTT,>13.93 µg/mL
CC(C)CN(C[C@@H](O)[C@H](Cc1ccccc1)NC(=O)O[C@H]1CO[C@H]2OCC[C@H]21)S(=O)(=O)c1ccc2nc(N)oc2c1,LAI WT,-,cytopathic effect / MTT,0.0199 µM
N#Cc1ccc(N2C(=O)C=CC3Nc4ccccc4C32)cc1,LAI,-,cytopathic effect / MTT,1–32 µM
CC[C@H](C)[C@H](NC(=O)C[C@H](O)[C@H](CC(C)C)NC(=O)[C@@H](N)CC(N)=O)C(N)=O,IIIB,-,ELISA / antigen,>1000 µM
CC(CC(F)(F)C(F)(F)C(F)(F)F)(C(=O)OCCOP(=O)(O)O)C(F)(F)C(F)(F)C(F)(F)F,-,-,cytopathic effect,9.3 µg/mL
CC(=O)N[C@@H](CCC(N)=O)C(=O)N[C@@H](C)C(=O)N[C@@H](CC(C)C)[C@@H](O)CC(=O)N[C@H](C(N)=O)C(C)C,IIIB,-,ELISA / antigen,500 µM
CCOP(=O)(OCC)C(N[C@@H](Cc1ccccc1)[C@H](O)CN(CC(C)C)S(=O)(=O)c1ccc(OC)cc1)C(C)C,ROD,-,MTT,>11.52 µg/mL
CC(CC(F)(OC(F)(F)C(F)(F)C(F)(F)F)C(F)(F)F)(C(=O)OCCOP(=O)([O-])O)C(F)(OC(F)(F)C(F)(F)C(F)(F)F)C(F)(F)F.[NH3+]CCO,-,-,cytopathic effect,35 µg/mL
COc1cccc(Nn2c(-c3ccccc3)c(C)[nH]c2=S)c1,SO561945 (RT K103N Y181C),RT-K103N Y181C,cytopathic effect / MTT,>38.02 µM
O=C(CSc1ccccn1)Nc1cc(C(F)(F)F)cc(C(F)(F)F)c1,IIIB,-,p24 / ELISA / antigen,>100 µM
CNc1nc2ccc(S(=O)(=O)N(CC(C)C)C[C@@H](O)[C@H](Cc3ccccc3)NC(=O)c3cccc(N)c3C)cc2o1,LAI WT,-,cytopathic effect / MTT,0.0204 µM
O=C(CSc1nc2ccccc2[nH]1)Nc1cc(C(F)(F)F)cc(C(F)(F)F)c1,IIIB,-,p24 / ELISA / antigen,2.2 µM
CCOP(=O)(OCC)C(N[C@@H](Cc1ccccc1)[C@H](O)CN(CC(C)C)S(=O)(=O)c1ccc(OC)cc1)c1ccccc1,ID12,-,MTT,>13.25 µg/mL
Nc1nnc(SCC(=O)Nc2ccccc2)s1,IIIB,-,p24 / ELISA / antigen,20.83 µM
Cc1nc2sccn2c1C(=O)N[C@@H](Cc1ccccc1)[C@H](O)CN(CC(C)C)S(=O)(=O)c1ccc2nc(N)oc2c1,LAI WT,-,cytopathic effect / MTT,0.2138 µM
N#Cc1ccc(Nc2nc(Oc3ccc(-c4ccc(C#N)cc4)c(F)c3F)c3sccc3n2)cc1,IIIB,Y188L,MTT,0.2286 µM
Cc1cccc(Nn2c(-c3ccccc3)c(C)[nH]c2=S)c1,NL4-3,-,cytopathic effect / MTT,2.17 µM
CCCC(C(=O)O)c1c(-c2ccccc2)c2cc(Cl)ccc2n(CCC)c1=O,-,-,MTT,10.8 µM
O=C1C=CC2Nc3ccccc3C2N1c1ccc(-c2nn[nH]n2)cc1,LAI,-,cytopathic effect / MTT,>32 µM
Cc1cccc(Nn2cnc(C)c2-c2ccccc2)c1,IIIB,-,cytopathic effect / MTT,3.26 µM
Cc1cc(-c2ccc(C#N)cc2)cc(Cl)c1Oc1nc(Nc2ccc(C#N)cc2)nc2ccsc12,IIIB,E138K,MTT,0.0527 µM
CC(C)CN(C[C@@H](O)[C@H](Cc1ccccc1)NC(=O)OC1COC2OCCC12)S(=O)(=O)c1ccc2nc(N)oc2c1,LAI WT,-,cytopathic effect / MTT,0.0331 µM
Cc1[nH]c(=S)n(Nc2cccc([N+](=O)[O-])c2)c1-c1ccccc1,IIIB,-,cytopathic effect / MTT,7.29 µM
CCOP(=O)(OCC)C(N[C@@H](Cc1ccccc1)[C@@H](O)CN(CC(C)C)S(=O)(=O)c1ccc(OC)cc1)c1ccc(C)cc1,ROD,-,MTT,>4.94 µg/mL
N#Cc1ccc(Nc2nc(Oc3ccc(-c4ccc(C#N)cc4)c([N+](=O)[O-])c3)c3sccc3n2)cc1,IIIB,-,MTT,0.0877 µM
CCc1[nH]c(=S)n(Nc2cccc(C)c2)c1-c1ccccc1,IIIB,-,cytopathic effect / MTT,17.64 µM

5 of the rows above, restated:

{"SMILES": "CCOP(=O)(OCC)C(N[C@@H](Cc1ccccc1)[C@@H](O)CN(CC(C)C)S(=O)(=O)c1ccc(OC)cc1)c1ccc([N+](=O)[O-])cc1", "strain": "IIIB", "read by": "MTT", "result": ">3.94 µg/mL"}
{"SMILES": "CC(=O)N[C@@H](CCC(N)=O)C(=O)N[C@@H](C)C(=O)N[C@@H](CC(C)C)[C@@H](O)CC(=O)N[C@H](C(N)=O)C(C)C", "strain": "IIIB", "read by": "ELISA / antigen", "result": "500 µM"}
{"SMILES": "CC(=O)N[C@@H](CCC(N)=O)C(=O)N[C@@H](C)C(=O)N[C@@H](CC(C)C)[C@@H](O)CC(=O)N[C@H](C(=O)N[C@H](C(N)=O)C(C)C)C(C)C", "strain": "IIIB", "read by": "ELISA / antigen", "result": "750 µM"}
{"SMILES": "O=C(CSc1nc2ccccc2[nH]1)Nc1cc(C(F)(F)F)cc(C(F)(F)F)c1", "strain": "IIIB", "read by": "p24 / ELISA / antigen", "result": "2.2 µM"}
{"SMILES": "CCc1[nH]c(=S)n(Nc2cccc(C)c2)c1-c1ccccc1", "strain": "IIIB", "read by": "cytopathic effect / MTT", "result": "17.64 µM"}